## Kdimer by position in the HIV-1 leader RNA

Reference: Ye et al. 2022, doi:10.1038/s41594-022-00746-2.

RNA: 5' end of the HIV-1 NL4-3 genome, made in vitro. Positions 1-437 read:
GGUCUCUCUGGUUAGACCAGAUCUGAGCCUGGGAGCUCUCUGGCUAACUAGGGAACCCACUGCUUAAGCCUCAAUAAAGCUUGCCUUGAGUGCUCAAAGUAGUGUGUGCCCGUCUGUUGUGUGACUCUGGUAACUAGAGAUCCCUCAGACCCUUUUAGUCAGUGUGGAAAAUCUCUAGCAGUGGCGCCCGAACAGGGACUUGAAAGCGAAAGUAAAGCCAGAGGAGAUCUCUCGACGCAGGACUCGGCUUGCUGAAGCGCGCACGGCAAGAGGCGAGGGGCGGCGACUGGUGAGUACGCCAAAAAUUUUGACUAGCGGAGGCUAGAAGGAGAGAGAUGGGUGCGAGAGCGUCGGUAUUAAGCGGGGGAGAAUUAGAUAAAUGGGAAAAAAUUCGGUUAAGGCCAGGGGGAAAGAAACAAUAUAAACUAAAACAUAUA

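Mutant RNA libraries with 1G, 2G or 3G starts, with or without cap, were folded at 37 °C for 30 min. Monomer and dimer bands were cut from native gels after folding in high salt (300 mM KCl, 5 mM MgCl2) or low salt (40 mM KCl, 0.1 mM MgCl2). Mutation frequencies in the two bands give Kdimer.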

Scale: median log2 Kdimer over the changes at a position; positive = changes inhibit dimerization, negative = changes enhance it. Sample: 1G uncapped low-salt. One numbering serves 1G, 2G and 3G. A position is written with its base.

position,domain,1G uncapped low-salt
G162,PBS,-0.44
U163,PBS,-0.05
G164,PBS,0.09
U165,PBS,-0.10
G166,PBS,0.03
G167,PBS,0.15
A168,PBS,0.25
A169,PBS,0.06
A170,PBS,0.05
A171,PBS,0.13
U172,PBS,0.46
C173,PBS,-0.29
U174,PBS,-0.57
C175,PBS,-0.15
U176,PBS,0.17
A177,PBS,-0.60
G178,PBS,0.15
C179,PBS,-0.29
A180,PBS,-0.11
G181,PBS,-0.69
U182,PBS,0.15
G183,PBS,-0.02
G184,PBS,0.36
C185,PBS,-0.26
G186,PBS,-0.20
C187,PBS,-0.19
C188,PBS,0.22
C189,PBS,0.25
G190,PBS,0.24
A191,PBS,-0.05

3 of these entries, quoted again:

| position | domain | 1G uncapped low-salt |
|---|---|---|
| U172 | PBS | 0.46 |
| G178 | PBS | 0.15 |
| G167 | PBS | 0.15 |